Pooled drug test results. Numbers come from NIAID ChemDB, via PubChem.

ICn is the concentration giving n% inhibition. Inhibition is in % at the dose shown (toxicity tests: loss of growth or viability). MIC bound: limit read from a one-dose screen. Lines come from different laboratories, so protocols vary. Blank or dashed fields: not listed here.

structure | tested at | strain or isolate | kind | organism | measure | read by | target | value
O=C(Nc1ccc(C2=NCCN2)cc1)Nc1cccc(C(=O)Nc2ccc(C3=NCCN3)cc2)c1 | - | H37Rv | culture | Mycobacterium tuberculosis | MIC bound | BACTEC | - | ≤12.5 µg/mL
O=C(O)c1ccc(O)cc1 | - | H37Rv | culture | Mycobacterium tuberculosis | MIC | - | - | >100 µg/mL
CC1OC(OC2C(Oc3cc(O)c4c(c3)OC(c3ccc(O)cc3)CC4=O)OC(CO)C(O)C2O)C(O)C(O)C1O | - | H37Rv | culture | Mycobacterium tuberculosis | MIC bound | BACTEC | - | >12.5 µg/mL
COc1ccc(C=O)c(C(=O)O)c1OC | - | H37Rv | culture | Mycobacterium tuberculosis | MIC | - | - | >100 µg/mL
C[N+]1([O-])[C@@H]2CC[C@H]1CC(OC(=O)C(CO)c1ccccc1)C2 | - | H37Rv | culture | Mycobacterium tuberculosis | MIC bound | BACTEC | - | >12.5 µg/mL
N#Cc1ccccc1N1CCN(c2cncc(-c3ccc(F)c(Cl)c3)n2)CC1 | - | - | target | Cytomegalovirus | IC50 | - | UL97 kinase | <10 µM
Cc1ccccc1Nc1nc(NNC(=O)Cc2ccccc2)nc(NNC(=O)c2ccncc2)n1 | - | H37Rv | culture | Mycobacterium tuberculosis | MIC bound | BACTEC | - | >12.5 µg/mL
COc1cccc(N2CCN(c3cncc(-c4ccc(C)cc4)n3)CC2)c1 | - | - | target | Cytomegalovirus | IC50 | - | UL97 kinase | <10 µM
Fc1ccc(N2CCCCC2)c(NC(=S)c2ccncc2)c1 | 10 µM | - | host protein | - | inhibition | kinase activity | TYK2 | 1.2%
CCOc1ccc(-c2cncc(N3CCN(c4ccc(F)cc4)CC3)n2)cc1 | 10 µM | - | target | Cytomegalovirus | inhibition | - | UL97 kinase | >15%
O=CNc1ccc(Oc2ccc(NC=O)cc2)cc1 | - | H37Rv | culture | Mycobacterium tuberculosis | MIC | - | - | 25 µg/mL
O=C(N/N=C(\c1ccccc1)C(F)(F)F)c1ccncc1 | 0.5 µM | - | culture | Mycobacterium tuberculosis | inhibition | BACTEC | - | 0%
COc1ccccc1N1CCN(c2cncc(-c3csc4ccccc34)n2)CC1 | - | - | target | Cytomegalovirus | IC50 | - | UL97 kinase | <100 µM
O=[N+]([O-])c1ccc(Sc2ccc(Cl)cc2)c([N+](=O)[O-])c1 | - | H37Rv | culture | Mycobacterium tuberculosis | MIC | - | - | >100 µg/mL
COc1ccc(N2CCN(c3cncc(-c4cccc(C)c4C)n3)CC2)cc1OC | 10 µM | - | target | Cytomegalovirus | inhibition | - | UL97 kinase | >15%
CCCCOc1ccc(C2=CC(=O)C(c3ccc(OCCCC)cc3)=CC2=O)cc1 | - | H37Rv | culture | Mycobacterium tuberculosis | MIC | - | - | >100 µg/mL
CCc1cccc(CC)c1Nc1nc2c(s1)C(=O)c1ccccc1C2=O | - | H37Rv | culture | Mycobacterium tuberculosis | MIC | BACTEC | - | 1.6 µg/mL
c1cc2c3c(cccc3c1)CC2 | - | H37Rv | culture | Mycobacterium tuberculosis | MIC | - | - | >100 µg/mL
CSc1nc2n(Cc3cn(C)c(=O)n(C)c3=O)cc(C)cc-2c(=O)n1 | - | H37Rv | culture | Mycobacterium tuberculosis | MIC bound | BACTEC | - | >12.5 µg/mL
O=C(OCc1ccccc1)c1ccccc1 | - | H37Rv | culture | Mycobacterium tuberculosis | MIC | - | - | >100 µg/mL
COc1cccc(N2CCN(c3cncc(-c4ccc(F)cc4)n3)CC2)c1 | - | - | target | Cytomegalovirus | IC50 | - | UL97 kinase | <10 µM

Again, the opening 2 rows:

structure	tested at	strain or isolate	kind	organism	measure	read by	target	value
O=C(Nc1ccc(C2=NCCN2)cc1)Nc1cccc(C(=O)Nc2ccc(C3=NCCN3)cc2)c1	-	H37Rv	culture	Mycobacterium tuberculosis	MIC bound	BACTEC	-	≤12.5 µg/mL
O=C(O)c1ccc(O)cc1	-	H37Rv	culture	Mycobacterium tuberculosis	MIC	-	-	>100 µg/mL